Compound potency records, mixed from different reports. Data source: NIAID ChemDB in PubChem.

Shared fields: toxicity to cultured cells; measure: CC50

CCn: concentration that lowers growth or viability of the cells by n%.

smiles,cell line,method,value
Nc1ncnc2c1ncn2C[C@H]1COP(=O)(O)CO1,CBMC,MTT,72 µM
CC(=O)Oc1ccccc1C(=O)NCCOc1cccc(C)c1,HeLa,,66.7 µM
CN(C(=O)Oc1ccc(Cl)cc1C(=O)Nc1ccc(C(F)(F)F)cc1)c1ccccc1,HepG2 cell,MTT,>100 µM
CC(C)=CC[C@H]1C[C@@]2(C[C@H]3CCC(C)(C)C=C3C)C(=O)[C@](C(=O)c3ccccc3)(C(=O)C3=C2OC(C)(C)C=C3)C1(C)C,P-388,sulforhodamine / absorbance,18.35 µM
Cc1ccc(Nc2cn(C3C=CC(O)C3)c(=O)n(C3C=CC(O)C3)c2=O)cc1,Huh7 cells,MTT,>50 µg/mL
CC(C)(C)C(=O)OCOP(=O)(COCCn1cnc2c(N)ncnc21)OCOC(=O)C(C)(C)C,HSB-2,MTT,0.7 µM
CCN(CC)CCN1c2ccc(OC)cc2Sc2ccc3ccccc3c21,VERO,,8.3 µg/mL
O=c1c2cc(O)ccc2oc2cccc(O)c12,1A2,XTT / absorbance,>548 µM
C=C1C2C[C@]3(O)C=C4C=CC(=O)OC(C)(C)C4[C@H](O)CC3[C@]2(C)CCC1(O)C(C)C1CC=C(C)C(=O)O1,BEL-7402,MTT,25.36 µM
COc1ccc(OC)c(Cc2cnc3nc(N)nc(N)c3c2C)c1,VERO,,>10 µg/mL
CCCCSc1n[nH]c(-c2ccccc2C)n1,Panc-1,MTT,>100 µg/mL
Cc1ccc(/C=C/C=C/C(=O)[Se]c2ccccc2)cc1,Li-7,WST,>100 µM
Oc1ccc(CNNC(=S)NC2CCCCC2)cc1,HeLa,,136.4 µM
O=c1cc(-c2ccc(O)cc2)oc2cc(O)cc(O)c12,HCT-8,,>100 µM
CN(C)C(=S)Oc1ccc(Cl)cc1C(=O)Nc1ccc(Cl)cc1,HepG2 cell,MTT,83.51 µM
Nc1nc(N)c2ncn(CCOCP(=O)(O)O)c2n1,HSB-2,MTT,153 µM
Cc1ccc(Nc2c[nH]c(=O)[nH]c2=O)cc1,Huh7 cells,MTT,>50 µg/mL
O=C(/C=C/c1ccccc1)[Se]c1ccccc1,Li-7,WST,>100 µM
OC[C@H]1O[C@@H](n2cnc3cc(Cl)c(Cl)cc32)[C@H](O)[C@@H]1O,E6SM,,40 µg/mL
Nc1nc2c(ncn2[C@@H]2C[C@H](CO)[C@H]2CO)c(=O)[nH]1,SupT1,,15 µg/mL
N=C1C=C(N)C(=O)c2ccccc21,VERO,,2.6 µg/mL
NC(=S)N=Nc1c(O)n(CN2CCN(c3ccnc4cc(C(F)(F)F)ccc34)CC2)c2cccc(Cl)c12,Human foreskin fibroblasts,MTT / absorbance,8 µM
C=CCc1cc(OC)c(O[C@H](C)[C@H](O)c2cc(OC)c(OC)c(OC)c2)c(OC)c1,P3HR-1,trypan blue / microscopy,>200 µM
C[C@H](CCOc1ccc(-c2ccc(Cl)cc2)cc1)CCN1CCN(c2ccncc2)C1=O,RD,,>25 µM
O=c1[nH]cnc2c1ncn2[C@H]1CC[C@@H](CO)O1,PBL,,2230 µM
O=C(Nc1ccc(F)cc1)c1cc(Cl)ccc1OC(=O)N(c1ccccc1)c1ccccc1,HepG2 cell,MTT,>100 µM
O=c1[nH]c(=O)n([C@H]2C[C@H](O)[C@@H](CO)O2)cc1/C=C/Br,TR-14,,>200 µg/mL
CO[C@H]1/C=C/O[C@@]2(C)Oc3c(C)c(O)c4c(O)c(c(C5SCCS5)c(O)c4c3C2=O)NC(=O)/C(C)=C\C=C\[C@H](C)[C@@H]2OC(C)(C)O[C@H]([C@@H](C)[C@H](O)[C@@H]1C)[C@@H]2C,VERO,,12.53 µg/mL
NC(=O)c1ncn([C@@H]2O[C@H](CO)[C@@H](O)[C@H]2O)n1,Huh7.5.1,MTT,47.4 µg/mL
NNC(=O)c1nc(N)n[nH]1,VERO,,8.6 µg/mL
Nc1nc(N)c2ncn(C[C@@H](CO)OCP(=O)(O)O)c2n1,CBMC,MTT,33 µM
CC1(C)CC[C@]2(C(=O)O)CC[C@]3(C)C(=CC[C@@H]4[C@@]5(C)CC[C@H](O)C(C)(C)[C@@H]5CC[C@]43C)[C@@H]2C1,HepG2-5B,MTT,>100 µg/mL
CCCC(=O)OCc1cc(=O)n(C)c2c3c4c(cc12)c(C)cc(=O)n4CO3,VERO,,1.2 µg/mL
C[C@@H]1O[C@@H](OC[C@H]2O[C@@H](Oc3c(-c4ccc(O)c(O)c4)oc4cc(O)cc(O)c4c3=O)[C@H](O)[C@@H](O)[C@@H]2O)[C@H](O)[C@H](O)[C@H]1O,HCT-8,,>100 µM
NC(=S)N=Nc1c(O)n(CN2CCN(c3ccnc4cc(Cl)ccc34)CC2)c2cccc(Br)c12,Human foreskin fibroblasts,MTT / absorbance,8 µM
CC1(C)C=Cc2c(c(O)cc3oc4cc(O)cc(O)c4c(=O)c23)O1,1A2,XTT / absorbance,127 µM
CCN(CC)CCCNc1ccc(C)c2sc3ccccc3c(=O)c12,VERO,,7.5 µg/mL
Nc1nc(NC2CC2)c2ncn([C@H]3C=C[C@@H](CO)C3)c2n1,HEK 293,WST,>100 µM
COc1ccc(C(=O)NCCOc2cccc(C)c2)c(Cl)c1,HeLa,,>156.5 µM
C=C1C(C(C)C2CC=C(C)C(=O)O2)=CC[C@]2(C)C1C[C@]1(O)C=C3C=CC(=O)OC(C)(C)C3[C@H](O)CC21,BEL-7402,MTT,0.92 µM
Nc1ncnc2c1ncn2CCOCP(=O)(O)O,CrFK,,252 µM
COc1ccc(/C=C/C=C/C(=O)[Se]c2ccccc2)cc1,HLE,WST,>100 µM
NC(=NC1CCCC1)c1ccc(-c2ccc(-c3ccc(C(N)=NC4CCCC4)cc3)o2)cc1,A2780 ovarian carcinoma,,12 µM
O=c1c2cc(O)ccc2oc2cc(O)cc(O)c12,P-388,sulforhodamine / absorbance,44.96 µM
CC(C)NS(=O)(=O)c1nc(-c2ccc(Cl)cc2)n[nH]1,THP-1,MTT,>100 µg/mL
O=[N+]([O-])c1cccc2ncccc12,Human foreskin fibroblasts,MTT / absorbance,11.3 µM
Nc1ncc2c(ncn2COC(CO)CO)n1,SupT1,,0.051 µg/mL
Nc1cc(OCCOCP(=O)(O)O)nc(N)n1,L1210,,<10 µM
CN(C)C(=S)Oc1ccc(Cl)cc1C(=O)Nc1ccc(F)cc1,HepG2 cell,MTT,116.8 µM
C/C(=C\C=C\C(C)[C@H]1CC[C@@]2(C)[C@@H]3CC[C@H]4C(C)(C)C(=O)CC[C@]4(C)C3=CC[C@]12C)C(=O)O,1A2,XTT / absorbance,276 µM
C[C@@H](CCOc1ccc(-c2ccc(Cl)cc2)cc1)CCN1CCN(c2ccncc2)C1=O,RD,,>25 µM
CN(C)C(=O)Oc1ccc(Cl)cc1C(=O)Nc1ccc(Br)cc1,HepG2 cell,MTT,342.5 µM
Clc1cc2nc[nH]c2cc1Cl,E6SM,,≥40 µg/mL
Cn1cc(NC(=O)c2cc(NC(=O)CCCCCC(=O)Nc3cc(C(=O)Nc4cc(C(=O)NCCC(N)=[NH2+])n(C)c4)n(C)c3)cn2C)cc1C(=O)NCCC(N)=[NH2+],VERO,,500 µg/mL
COc1c2c(c3c(c1C(=O)c1cccc(O)c1)OC(C)(C)C=C3)OC(C)(C)C=C2,1A2,XTT / absorbance,>392 µM
O=C(O)P(=O)(O)O,SupT1,,134 µg/mL
Nc1cc(=O)n(CCOCP(=O)(O)O)cn1,CCRF-CEM,,<10 µM
COc1ccc(-c2cc(OC)c(O)c(OC)c2O)cc1,HT-29,sulforhodamine / absorbance,>50 µM
CC1=CCC(C(C)C2=C(C)C3C[C@]4(O)C=C5C=CC(=O)OC(C)(C)C5[C@H](O)CC4[C@]3(C)C=C2)OC1=O,BEL-7402,MTT,16.98 µM
O=C(/C=C/C=C/c1ccc([N+](=O)[O-])cc1)[Se]c1ccccc1,HLE,WST,67.1 µM
Nc1ncnc2c1ncn2CCOCP(=O)(O)O,SupT1,,43 µg/mL
C=C1C(C(C)C2CC=C(C)C(=O)O2)=CC[C@]2(C)C1C[C@]1(O)C=C3C=CC(=O)OC(C)(C)C3CCC21,HL-60,MTT,3.96 µM
CC(=O)N[C@H]1[C@@H](O[C@@H]2O[C@H](C[C@@H](O)[C@H]3O[C@@H](n4ccc(=O)[nH]c4=O)[C@H](O)[C@@H]3O)[C@H](O)[C@H](O)[C@H]2NC(=O)/C=C/CC(C)C)O[C@H](CO)[C@@H](O)[C@@H]1O,VERO,,23.1 µg/mL
O=C(/C=C/C=C/c1ccc(O)c(O)c1)[Se]c1ccccc1,HLE,WST,>100 µM
CO[C@@]12[C@H](COC(N)=O)C3=C(C(=O)C(C)=C(N)C3=O)N1C[C@H]1[C@@H]2N1C(=O)C1N2C(=O)[C@@H](NC(=O)Cc3ccccc3)[C@H]2SC1(C)C,VERO,,<0.41 µg/mL
CCSc1nnc(-c2ccc(F)cc2)o1,Panc-1,MTT,>100 µg/mL
Nc1ncnc2c1ncn2CCOCP(=O)(O)O,HepG2 2.2.15,,>100 µM
O=C(O)P(=O)(O)O,TR-14,,>200 µg/mL
O=C(NCCOc1cccc2ccccc12)c1ccccc1O,HeLa,,19.5 µM
CO[C@H]1/C=C/O[C@@]2(C)Oc3c(C)c(O)c4c(O)c(c(/C=N/N5CCN(C)CC5)c(O)c4c3C2=O)NC(=O)/C(C)=C\C=C\[C@H](C)[C@H](O)[C@@H](C)[C@@H](O)[C@@H](C)[C@H](OC(C)=O)[C@@H]1C,Vero cells,MTT,>50 µg/mL
O=C(Nc1ccc(C(F)(F)F)cc1)c1cc(Cl)ccc1OC(=O)N(c1ccccc1)c1ccccc1,HepG2 cell,MTT,>100 µM
C[C@@]12C(=O)OC(=O)[C@]1(C)[C@H]1CC[C@@H]2O1,HepG2 2.2.15,,3.5 µM
OCCOC([C@H](O)CO)n1cnc2cc(Cl)c(Cl)cc21,E6SM,,400 µg/mL
NC1=NNC2(C(=O)N1)c1ccccc1-c1ccccc12,VERO,,>10 µg/mL
Nc1nc(OCCOCP(=O)(O)O)cc(=O)n1CCOCP(=O)(O)O,CCRF-CEM,,<10 µM
C[C@H](Cn1cnc2c(N)ncnc21)OCP(=O)(O)O,CrFK,,>50 µM
CC1(C)N=c2cc3c(cc2N1c1ccc(Cl)cc1)=Nc1ccccc1N3c1ccc(Cl)cc1,VERO,,1.25 µg/mL
O=c1c(Nc2ccccc2)cn(C2C=CC(O)C2)c(=O)n1C1C=CC(O)C1,Vero cells,MTT,>50 µg/mL
CC[C@H]1C[C@]1(NC(=O)[C@@H]1C[C@@H]2CN1C(=O)[C@H](C(C)(C)C)NC(=O)OCC(C)(C)CCCCc1cccc3c1CN(C3)C(=O)O2)C(=O)NS(=O)(=O)C1CC1,Huh7.5.1,MTT,81.4 µg/mL
O=c1c2cc(O)c(O)cc2oc2cc(O)cc(O)c12,ASK (Atlantic salmon kidney),sulforhodamine / absorbance,>50 µM
Fc1ccc(-c2nc(SCC3CC3)n[nH]2)cc1,THP-1,MTT,>100 µg/mL
Cl.FC(F)(F)c1ccc2c(c1)N(CCCNCCN1CCOCC1)c1ccccc1S2,VERO,,3.1 µg/mL
OC[C@H]1O[C@H](n2cnc3cc(Cl)c(Cl)cc32)[C@@H](O)[C@H]1O,E6SM,,≥400 µg/mL
O=C1C=C(Nc2ccccc2C(=O)CC(=O)C(=O)Nc2ccc(Cl)cc2)c2ccccc2C1=O,VERO,,5.19 µg/mL
C[C@H](Cn1cnc2c(N)ncnc21)OCP(=O)(O)O,Primary duck hepatocytes,,>100 µM
O=C1C(=O)N(CN2CCN(c3ccnc4cc(Cl)ccc34)CC2)c2cc(Cl)ccc21,Human foreskin fibroblasts,MTT / absorbance,11.7 µM
COc1cc([C@H]2Oc3cc([C@H]4Oc5cc(O)cc(O)c5C(=O)[C@@H]4O)ccc3O[C@@H]2CO)ccc1O,HCT-8,,>100 µM
Nc1nc2c(ncn2CCC(CO)CO)c(=O)[nH]1,SupT1,,170 µg/mL
O=C1C(=O)N(CCCNc2ccnc3cc(Cl)ccc23)c2cc(Br)ccc21,Human foreskin fibroblasts,MTT / absorbance,3.75 µM
C[C@@H](COc1cc(N)nc(N)n1)OCP(=O)(O)O,HeLa S3,,<10 µM
Cn1cc(NC(=O)c2cc(NC(=O)CCCCCCCCCCC(=O)Nc3cc(C(=O)Nc4cc(C(=O)NCCC(N)=[NH2+])n(C)c4)n(C)c3)cn2C)cc1C(=O)NCCC(N)=[NH2+],VERO,,41 µg/mL
COc1cc(O)cc2oc3cc(O)c(O)cc3c(=O)c12,P-388,sulforhodamine / absorbance,>50 µM
CN(C)C(=O)Oc1ccc(Cl)cc1C(=O)Nc1ccc(F)cc1,HepG2 cell,MTT,444.5 µM
Cc1cn([C@H]2C[C@H](N=[N+]=[N-])[C@@H](CO)O2)c(=O)[nH]c1=O,HeLaT4,,>2500 µM
O=C(/C=C/C=C/c1ccccc1)[Se]c1ccccc1,HLE,WST,>100 µM
O=c1c(O)c(-c2ccccc2)oc2cc(O)cc(O)c12,HCT-8,,>100 µM
O=[N+]([O-])c1ccc(-c2n[nH]c(=S)s2)cc1,Panc-1,MTT,>100 µg/mL

Neighbouring rows are from separate reports. Blank or dashed fields: not listed here.